What all share (assay): qHTS profiling for inhibitors of Plasmodium falciparum proliferation (AID 504749); note: nearly all actives have a fitted effect of over 60% in size;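 for activity, negative = inhibition: 0% = DMSO vehicle and full inhibition = artemisinin control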
(In qHTS, concentration-response curves come from the screen itself.)

The subject of one assay is CP215. Conditions: P. falciparum in erythrocytes, SYBR Green DNA, 72 h; at 28.7 µM (top of the series) unless noted. The gist of the method: (§1)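 Readout was DNA-dye fluorescence from lysed cultures, ex 485/em 535 nm. Parasitized red cells had grown 72 h with compound; data scaled between 0.29 uM artemisinin and DMSO wells and corrected using vehicle-only plates.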
Another assay deals with CP217. The conditions noted are these: P. falciparum in erythrocytes, SYBR Green DNA, 72 h; at 28.7 µM (top of the series) unless noted. Put shortly: as §1
In the next assay the test system is CP237. Conditions: P. falciparum in erythrocytes, SYBR Green DNA, 72 h; series mostly up to 28.7 µM. The gist of the method:
as §1

The next assay relates to CP238. The conditions noted are these: P. falciparum in erythrocytes, SYBR Green DNA, 72 h; at 28.7 µM (top of the series) unless noted. Put shortly: as §1
The next assay deals with CP247. Conditions: P. falciparum in erythrocytes, SYBR Green DNA, 72 h; at 28.7 µM (top of the series) unless noted. Put shortly: as §1
For a further assay, the system named is CP250. The conditions noted are these: P. falciparum in erythrocytes, SYBR Green DNA, 72 h; at 28.7 µM (top of the series) unless noted. The gist of the method:
as §1

For a further assay, the system named is CP252. The conditions noted are these: P. falciparum in erythrocytes, SYBR Green DNA, 72 h; series mostly up to 28.7 µM. Put shortly:
as §1

For the next assay, the system named is CP256. The conditions noted are these: P. falciparum in erythrocytes, SYBR Green DNA, 72 h; series mostly up to 28.7 µM. The gist of the method: as §1
The next assay relates to CP260. The conditions noted are these: P. falciparum in erythrocytes, SYBR Green DNA, 72 h; series mostly up to 28.7 µM. The gist of the method:
as §1

A further assay has as its system CP262. The conditions noted are these: P. falciparum in erythrocytes, SYBR Green DNA, 72 h; at 28.7 µM (top of the series) unless noted. The gist of the method: as §1
Another assay relates to CP265. The conditions noted are these: P. falciparum in erythrocytes, SYBR Green DNA, 72 h; at 28.7 µM (top of the series) unless noted. The gist of the method: as §1
The subject of another assay is CP268. Conditions: P. falciparum in erythrocytes, SYBR Green DNA, 72 h; series mostly up to 28.7 µM. Put shortly: as §1
In the next assay the test system is CP269. The conditions noted are these: P. falciparum in erythrocytes, SYBR Green DNA, 72 h; at 28.7 µM (top of the series) unless noted. Put shortly:
as §1

The test system of another assay is CP286. Conditions: P. falciparum in erythrocytes, SYBR Green DNA, 72 h; series mostly up to 28.7 µM. The gist of the method: as §1
The test system of the next assay is CP291. Conditions: P. falciparum in erythrocytes, SYBR Green DNA, 72 h; series mostly up to 28.7 µM. The gist of the method: as §1
Another assay deals with CP297. The conditions noted are these: P. falciparum in erythrocytes, SYBR Green DNA, 72 h; series mostly up to 28.7 µM. Put shortly:
as §1

The subject of a further assay is CP305. The conditions noted are these: P. falciparum in erythrocytes, SYBR Green DNA, 72 h; series mostly up to 28.7 µM. Put shortly:
as §1

In a further assay the test system is CP315. The conditions noted are these: P. falciparum in erythrocytes, SYBR Green DNA, 72 h; at 28.7 µM (top of the series) unless noted. The gist of the method: as §1
The next assay relates to CP325. Conditions: P. falciparum in erythrocytes, SYBR Green DNA, 72 h; series mostly up to 28.7 µM. The gist of the method:
as §1

The subject of the next assay is CP266. Conditions: P. falciparum in erythrocytes, SYBR Green DNA, 72 h; at 28.7 µM (top of the series). Put shortly:
as §1

The list shows a part of the results, in another mix than the full data. Records with an inconclusive call do not appear. The source made the active and inactive calls. Calls come from the whole dose curve; as a rule, active = well fitted inhibition curve with a large enough effect; inconclusive = small, poorly fitted or top-dose-only effect; inactive = flat fitted curve, though single readings scatter.
Potency is the fitted concentration of half-maximal effect.

In the case of `O=[N+]([O-])c1cccc([N+](=O)[O-])c1`, the activity, negative = inhibition in the assay on CP215 was inactive: -0.653%; in the assay with CP217, inactive: 1.76%; in the assay on CP238, inactive: 2.61%; in the assay with CP247 it was inactive: 2.5%; in the assay with CP250, inactive: 1.13%; in the assay with CP262, inactive: 0.629%. Moreover, the activity, negative = inhibition with CP265 was inactive: 8.61%; in the assay with CP269, inactive: -2.63%; in the assay with CP315, inactive: 0.504%. Further, the Potency entry with CP237, with CP252, in the assay with CP256, with CP260, in the assay with CP268 and in the assay with CP286 was “inactive” throughout. Further, the Potency result with CP291, with CP297, in the assay on CP305 and in the assay with CP325 was “inactive” throughout.

For the molecule `C/C1=C2N=C(/C=C3N=C(/C(C)=C4\[N-][C@@](C)([C@H]5N=C1[C@@](C)(CCC(=O)NC[C@H](C)OP(=O)([O-])O[C@@H]1[C@H](O)[C@H](n6cnc7cc(C)c(C)cc76)O[C@@H]1CO)[C@@H]5CC(N)=O)[C@](C)(CC(N)=O)[C@H]4CCC(N)=O)[C@@](C)(CC(N)=O)[C@@H]\3CCC(N)=O)C(C)(C)[C@@H]/2CCC(N)=O.[C-]#N.[Co+3]`, the activity, negative = inhibition was inactive: 0.758% [at 12.8 µM] in the assay on CP215; inactive: 2.59% [at 12.8 µM] with CP217; inactive: 2.38% [at 12.8 µM] in the assay with CP238; inactive: 7.77% [at 12.8 µM] in the assay with CP247; inactive: 1.7% [at 12.8 µM] in the assay on CP250; inactive: -3.99% [at 12.8 µM] with CP262. In addition, the results for the activity, negative = inhibition in the assay with CP265, in the assay on CP269 and in the assay on CP315 were inactive: 6.84% [at 12.8 µM], inactive: -3.94% [at 12.8 µM] and inactive: 1.49% [at 12.8 µM], respectively. Further, the Potency result with CP237, in the assay with CP252, in the assay on CP256, in the assay with CP260, in the assay on CP268 and in the assay on CP286 was “inactive” throughout. Moreover, the Potency entry in the assay with CP291, in the assay on CP297, in the assay on CP305 and in the assay with CP325 was “inactive” each time.

In the case of `O=[N+]([O-])OCC(CO[N+](=O)[O-])(CO[N+](=O)[O-])CO[N+](=O)[O-]`, the activity, negative = inhibition in the assay on CP217 is inactive: -21.8%; in the assay on CP250 it was inactive: -29.1%; in the assay with CP262, inactive: -15.4%; in the assay with CP265, inactive: -3.5%. For the same molecule, the Potency is active: 4.47 µM in the assay on CP237; active: 11.2 µM in the assay with CP252; active: 7.08 µM with CP256; active: 6.31 µM in the assay on CP260; active: 13.5 µM in the assay on CP268; active: 4.47 µM in the assay with CP286. The Potency with CP291 was active: 13.5 µM; in the assay on CP297 it was active: 4.78 µM; in the assay with CP305, active: 15.1 µM; with CP325, active: 10.7 µM.

`CC(C)OP(=O)(F)OC(C)C`: the activity, negative = inhibition is inactive: 1.28% in the assay on CP215; inactive: -1.33% in the assay on CP217; inactive: 4.31% in the assay on CP238; inactive: -14.5% in the assay on CP247; inactive: -2.38% in the assay on CP250; inactive: -1.06% in the assay with CP262. Also, the activity, negative = inhibition with CP265 is inactive: 1.08%; in the assay with CP266, inactive: -1.73%; with CP269 it was inactive: 0.301%; in the assay with CP315, inactive: -4.06%. The Potency entry in the assay with CP237, in the assay on CP252, in the assay with CP256, in the assay on CP260, in the assay with CP268 and with CP286 was “inactive” in each case. In addition, the Potency result in the assay on CP291, with CP297, in the assay on CP305 and in the assay on CP325 was “inactive” in each case.

The values are drawn from PubChem BioAssay (NCATS).
